According to patent US6943268B2 (priority 1999, dated 2005):

System: HIV-1
Assay: NIH Anti-HIV Drug Testing System (XTT, CEM T4 lymphocytes)

What does the source list for O=[As]c1ccccc1 (centres unmarked)?
anti-HIV activity (6 days, long-term toxicity superimposed): did show anti-HIV activity; concentration expected to show a complete blockade of HIV entry (modified protocol: drug and free virion removed after the infection period): 10 µM
